The values that follow are results of earlier work, collected in patent US7083961B1 (priority 2002, dated 2006).

Amino acid sequences for entries named in this document (tags omitted).
UniProt P0C0H6, whole entry: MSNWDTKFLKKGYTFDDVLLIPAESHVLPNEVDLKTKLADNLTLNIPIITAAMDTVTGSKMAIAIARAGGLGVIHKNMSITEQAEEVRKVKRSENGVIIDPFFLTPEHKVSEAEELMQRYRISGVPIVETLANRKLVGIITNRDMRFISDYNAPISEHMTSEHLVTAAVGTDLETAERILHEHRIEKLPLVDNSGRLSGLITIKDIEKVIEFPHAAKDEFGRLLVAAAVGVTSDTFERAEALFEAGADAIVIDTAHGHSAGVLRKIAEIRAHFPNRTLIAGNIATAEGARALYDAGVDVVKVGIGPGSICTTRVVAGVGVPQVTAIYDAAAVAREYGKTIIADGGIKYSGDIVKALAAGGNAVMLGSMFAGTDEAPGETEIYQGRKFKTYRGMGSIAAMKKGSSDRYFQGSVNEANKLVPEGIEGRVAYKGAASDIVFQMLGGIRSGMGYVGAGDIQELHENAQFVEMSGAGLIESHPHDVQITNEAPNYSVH

The data set addresses S. pyogenes IMPDH (Streptococcus pyogenes, UniProt P0C0H6).

What is called Ki is a dissociation constant, usually derived from enzyme kinetics or from competition with a known ligand. With `NC(=O)c1ncn([C@@H]2O[C@H](COP(=O)(O)O)[C@@H](O)[C@H]2O)n1`, the Ki was 6 µM.
